A mixed list of measured activities; the numbers were collected in NIAID ChemDB.

All rows: tests in culture; species: HIV-1; method: MTT; measure: EC50

ECn: concentration that inhibits the pathogen or its effect by n%. Neighbouring rows are from separate reports. Blank or dashed fields: not listed here.

| smiles | changes | strain | cells | result |
|---|---|---|---|---|
| Cc1nc(NC(=O)Nc2ccc(F)cc2)c(C)c(C(OC(C)(C)C)C(=O)O)c1-c1ccc2c(c1)CCCO2 |  | IIIB | MT-4 | 0.014 µM |
| COCC[C@H](C)OC(=O)[C@@H](N)c1ccccc1-c1c[nH]c2ccccc12 |  | NL4-3 | MT-4 | 26 µM |
| C/C(=N\Nc1nc(-c2ccc([N+](=O)[O-])cc2)cs1)c1ccc(Cl)c(Cl)c1 |  | IIIB | MT-4 | >14.07 µM |
| Cc1nc(Nc2cnc3ccccc3c2)c(C)c(C(OC(C)(C)C)C(=O)O)c1-c1ccc2c(c1)CCCO2 |  | IIIB | MT-4 | 0.013 µM |
| COc1ccc(CSc2nc(C(=O)c3cccc(Br)c3)c(C)c(=O)[nH]2)cc1 |  | IIIB | MT-4 | >252 µM |
| CSCC[C@H](OC(=O)[C@@H](N)c1ccccc1-c1c[nH]c2ccccc12)c1ccccc1 |  | NL4-3 | MT-4 | 12 µM |
| COc1ccc(NC(=O)Nc2nc(/C=C/c3cc(OC)c(OC)c(OC)c3)nc3ccccc23)cc1 |  | IIIB | MT-4 | >1.88 µg/mL |
| Cc1cc(/C=C/C#N)cc(C)c1Oc1nc(NC2CCN(Cc3ccccc3C#N)CC2)nc2ccsc12 | NNRTI-resistant (RT L100I) | IIIB | MT-4 | 0.0151 µM |
| Cc1cc(C)c(-n2c(SCC(=O)Nc3ccccc3Cl)nc3cccnc32)c(C)c1 |  | ROD | MT-4 | >26 µM |
| Cc1cc(/C=C/C#N)cc(C)c1Oc1nc(NC2CCN(Cc3ccc([N+](=O)[O-])cc3)CC2)nc2ccsc12 | NNRTI-resistant (RT Y188L) | IIIB | MT-4 | 0.117 µM |
| C/C(=N\Nc1nc(-c2ccc(Br)cc2)cs1)c1ccc2c(c1)OCO2 |  | IIIB | MT-4 | >41.93 µM |
| Cc1nc(NC(=O)NC2CCCCCC2)c(C)c(C(OC(C)(C)C)C(=O)O)c1-c1ccc2c(c1)CCCO2 |  | IIIB | MT-4 | 0.013 µM |
| COc1cc(/C=C/c2nc(NC(=S)Nc3ccccc3)c3ccccc3n2)cc(OC)c1OC |  | IIIB | MT-4 | >5.66 µg/mL |
| C/C(=N\Nc1nc(-c2ccc(C#N)cc2)cs1)c1ccc2c(c1)OCO2 |  | IIIB | MT-4 | >68.28 µM |
| COc1cc(/C=C/c2nc(NC(=O)Nc3ccc([N+](=O)[O-])cc3)c3ccccc3n2)cc(OC)c1OC |  | IIIB | MT-4 | >1.72 µg/mL |
| COc1ccc(CSc2nc(C(=O)c3ccc(F)cc3)c(C)c(=O)[nH]2)cc1 | K103N/Y181C | IIIB | MT-4 | >225 µM |
| Cc1cc(C#N)cc(C)c1Oc1nc(NC2CCC(NCc3cccc(C(F)(F)F)c3)CC2)nc2ccsc12 |  | RES056 | MT-4 | >707 µM |
| COc1ccc(-c2c(C)nc(NC(=O)NC3CCCCC3)c(C)c2C(OC(C)(C)C)C(=O)O)c(C)c1 |  | IIIB | MT-4 | 0.01 µM |
| COc1cc(/C=C/c2nc(NC(=O)Nc3cccc([N+](=O)[O-])c3)c3ccccc3n2)cc(OC)c1OC |  | IIIB | MT-4 | >1.17 µg/mL |
| CCC(C)Sc1nc(C2(c3c(F)cccc3F)CC2)c(C)c(=O)[nH]1 |  | NL4-3 | MT-4 | 0.00725 µM |
| C/C(=N\Nc1nc(-c2ccc([N+](=O)[O-])cc2)cs1)c1ccc(-c2ccc(Br)cc2)cc1 |  | IIIB | MT-4 | >66.15 µM |
| Cc1c(C2(c3c(F)cccc3F)CC2)nc(SC(C)C)[nH]c1=O |  | NL4-3 | MT-4 | 0.01 µM |
| Cc1cc(C#N)cc(C)c1Oc1nc(NC2CCC(NCc3ccc(S(C)(=O)=O)cc3)CC2)nc2ccsc12 | NNRTI-resistant | IIIB | MT-4 | 113 µM |
| Oc1ccccc1/C=N/Nc1nc(-c2ccc(Cl)cc2)cs1 |  | IIIB | MT-4 | >102 µM |
| CC(=O)c1cc2ccccc2oc1=O |  | IIIB | HTLV-I-bearing MT-4 | >1000 µg/mL |
| CC1=C[C@H](Cn2cnc3c(NC4CC4)nc(N)nc32)C[C@@H]1CO |  | IIIB | MT-4 | >100 µg/mL |
| CSCC[C@H](C)OC(=O)[C@@H](NC(=O)Cc1c[nH]c2ccccc12)c1ccccc1-c1c[nH]c2ccccc12 |  | NL4-3 | MT-4 | >12 µM |
| CC1=C[C@H](Cn2cnc3c(NC4CC4)ncnc32)C[C@@H]1CO |  | IIIB | MT-4 | >100 µg/mL |
| Cc1ccc(-c2c(C)nc(NC(=O)NC3CCCCC3)c(C)c2C(OC(C)(C)C)C(=O)O)cc1C |  | IIIB | MT-4 | 0.0078 µM |
| N#Cc1ccc(-c2csc(N/N=C/c3cccnc3)n2)cc1 |  | IIIB | MT-4 | >7.73 µM |
| Cc1cc(/C=C/C#N)cc(C)c1Oc1nc(NC2CCN(Cc3ccc(F)cc3)CC2)nc2ccsc12 | NNRTI-resistant (RT F227L V106A) | IIIB | MT-4 | 0.103 µM |
| Cc1cc2occ(C=O)c(=O)c2cc1Cl |  | IIIB | HTLV-I-bearing MT-4 | >40 µg/mL |
| COc1ccc(CSc2nc(C(=O)c3ccc(Br)cc3)c(C)c(=O)[nH]2)cc1 |  | IIIB | MT-4 | 15.99 µM |
| CC(C)c1ccc2occ(C=O)c(=O)c2c1 |  | IIIB | HTLV-I-bearing MT-4 | >40 µg/mL |
| Cc1cc(/C=C/C#N)cc(C)c1Oc1nc(NC2CCN(Cc3ccccc3F)CC2)nc2ccsc12 | NNRTI-resistant (RT Y188L) | IIIB | MT-4 | 0.139 µM |
| O=Cc1coc2ccc(Br)cc2c1=O |  | IIIB | HTLV-I-bearing MT-4 | >40 µg/mL |
| CSCC[C@H](C)OC(=O)[C@@H](NC(=O)CSC)c1ccccc1-c1c[nH]c2ccccc12 |  | NL4-3 | MT-4 | 20 µM |

Again, the opening 4 rows:

smiles,changes,strain,cells,result
Cc1nc(NC(=O)Nc2ccc(F)cc2)c(C)c(C(OC(C)(C)C)C(=O)O)c1-c1ccc2c(c1)CCCO2,,IIIB,MT-4,0.014 µM
COCC[C@H](C)OC(=O)[C@@H](N)c1ccccc1-c1c[nH]c2ccccc12,,NL4-3,MT-4,26 µM
C/C(=N\Nc1nc(-c2ccc([N+](=O)[O-])cc2)cs1)c1ccc(Cl)c(Cl)c1,,IIIB,MT-4,>14.07 µM
Cc1nc(Nc2cnc3ccccc3c2)c(C)c(C(OC(C)(C)C)C(=O)O)c1-c1ccc2c(c1)CCCO2,,IIIB,MT-4,0.013 µM